A mixed list of measured activities; the numbers were collected in NIAID ChemDB.

All rows: whole-cell or culture tests; agent: HIV-1; endpoint: EC50

Neighbouring rows are from separate reports.

NC(=O)CCNC(=O)c1ccccc1SCc1ccc(OP2(=O)OCc3ccccc3O2)cc1 ; method: XTT ; cells: Macrophage ; result: 0.18 µM
CCc1cc(C#N)cc(C(=O)c2cc(Cl)ccc2OCC(=O)Nc2ccc(S(N)(=O)=O)cc2C)c1 ; strain: HXB2 ; method: β-galactosidase ; cells: HeLa + HELA CD4+ ; changes: RT-V106I Y181C ; result: 0.011–0.1 µM
Cc1cn([C@H]2C=C[C@@H](CO)O2)c(=O)[nH]c1=O ; strain: IIIB ; method: syncytia / microscopy ; cells: CEM ; result: 0.86 µM
O=C(COc1ccc(Cl)cc1C(=O)c1ccco1)Nc1ccc2cn[nH]c2c1 ; strain: HXB2 ; method: β-galactosidase ; cells: HeLa + HELA CD4+ ; changes: RT-Y181C ; result: 0.011–0.1 µM
CCC1=C(C(=O)OCC2CCCCC2)C(c2cc(C(F)(F)F)cc(C(F)(F)F)c2)NC(=O)N1 ; method: p24 / ELISA ; cells: CEM ; result: ≤1 µM
O=C1Nc2cc(Cc3ncncc3F)ccc2[C@@](C#CC2CC2)(C(F)(F)F)N1 ; setting: pseudotyped ; method: GFP ; cells: PBMC ; result: 0.0214 µM
Cc1cn([C@@H]2O[C@H](CO)[C@@H](O)[C@@H]2O)c(=O)n(CCF)c1=O ; strain: IIIB ; method: microscopy ; cells: CEM ; result: >400 µg/mL
Nc1nc2c(ncn2COCCO)c(=O)[nH]1 ; method: single cycle ; result: 10 µM
COc1ccc(C(=O)NC(C)(C)CNC(=O)C[C@@]23CC[C@]4(C)[C@H](CC[C@@H]5[C@@]6(C)CC[C@H](OC(=O)[C@H]7C[C@@H](C(=O)O)C7(C)C)C(C)(C)[C@@H]6CC[C@]54C)C2=C(C(C)C)C(=O)C3)cc1 ; strain: 92HT599 ; method: p24 / ELISA ; cells: MT-2 ; result: <1 µM
CS[C@@]1(Cc2ccccc2O)NC(=O)/C(=C/c2ccccc2)NC1=O ; strain: NL4-3 ; method: luciferase / luminescence ; cells: 293T ; result: 6.7 µM
CC(C)C1=C2[C@H]3CC[C@@H]4[C@@]5(C)CC[C@H](OC(=O)[C@H]6C[C@@H](C(=O)O)C6(C)C)C(C)(C)[C@@H]5CC[C@@]4(C)[C@]3(C)CC[C@@]2([C@@H](O)CNCc2cccnc2N2CCOCC2)CC1=O ; strain: 92HT599 ; method: p24 / ELISA ; cells: MT-2 ; result: <1 µM
Cc1cc(S(N)(=O)=O)ccc1NC(=O)COc1ccc(Cl)cc1C(=O)c1cc(C#N)cc(C#N)c1 ; strain: HXB2 ; method: β-galactosidase ; cells: HeLa + HELA CD4+ ; changes: RT-K103N ; result: <0.01 µM
CCCCCCCCCCCCCC(=O)Oc1ccc(COP(=O)(OCc2ccc(OC(=O)CCCCCCCCCCCCC)cc2)OP(=O)(O)OC[C@@H]2C=C[C@H](n3cc(C)c(=O)[nH]c3=O)O2)cc1 ; strain: IIIB ; method: syncytia / microscopy ; cells: CEM ; result: 1.8 µM
Cc1cc(C#N)cc(C(=O)c2cc(Cl)ccc2OCC(=O)Nc2ccc(S(N)(=O)=O)nc2C)c1 ; strain: HXB2 ; method: β-galactosidase ; cells: HeLa + HELA CD4+ ; changes: RT-P236L ; result: <0.01 µM
CCCCCOC(=O)[C@@H](C)NP(=O)(CO[C@H](C)Cn1cnc2c(N)ncnc21)NC[C@H](C)C(=O)OC(C)C ; setting: 50% human serum ; method: fluorescence ; cells: MT4-GFP ; result: 28.3 µM
Cc1cc(S(N)(=O)=O)ccc1NC(=O)COc1ccc(Cl)cc1C(=O)c1cccc(C#N)n1 ; strain: HXB2 ; method: β-galactosidase ; cells: HeLa + HELA CD4+ ; changes: RT-L100I ; result: <0.01 µM
CCCc1cc(=O)oc2c3c(c4c(c12)OC(C)(C)CC4)O[C@H](C)[C@@H](C)C3=O ; method: cytopathic effect / XTT ; changes: RT-L100I ; result: >100 µM
[2H]C(CCCCN)(CNC(=O)c1ccc(Cl)cc1)NC(=O)C[C@@]12CC[C@]3(C)[C@H](CC[C@@H]4[C@@]5(C)CC[C@H](OC(=O)[C@H]6C[C@@H](C(=O)O)C6(C)C)C(C)(C)[C@@H]5CC[C@]43C)C1=C(C(C)C)C(=O)C2 ; strain: 92HT599 ; method: p24 / ELISA ; cells: MT-2 ; result: <1 µM
CN1C(=O)[C@@H](c2cc(Cl)c(O)c(Cl)c2)NC(=O)C2NC(=O)[C@H](c3cc(Cl)c(O)c(Cl)c3)NC(=O)[C@@H](NC(=O)C(=O)c3cc(Cl)c(O)c(Cl)c3)Cc3c[nH]c4c(cccc34)-c3cc2cc(c3O)Oc2ccc(cc2)CC1C(=O)N[C@@H](C(=O)O)c1ccc(O)cc1 ; strain: Clinical isolate ; method: ELISA / cell fusion ; result: <1.3 µM
Nc1ncnc2c1ncn2[C@@H]1O[C@H](COP(=O)(O)O[C@@H]2C[C@@H](COP(=O)(O)O[C@@H]3[C@H](O)[C@@H](CO)O[C@H]3n3cnc4c(N)ncnc43)O[C@H]2n2cnc3c(N)ncnc32)[C@@H](O)[C@H]1O ; method: cytopathic effect / neutral red ; cells: MT-2 ; result: 2.8 µM
CS[C@@]12CC3C(=O)CC[C@H](O)[C@H]3N1C(=O)[C@@]13C[C@@H]4[C@@H]([C@@H](O)[C@@H](C[C@@H]4O)S1)N3C2=O ; strain: NL4-3 ; method: luciferase / luminescence ; cells: 293T ; result: 18.2 µM
CC(C)C1=C2[C@H]3CC[C@@H]4[C@@]5(C)CC[C@H](OC(=O)[C@H]6C[C@@H](C(=O)O)C6(C)C)C(C)(C)[C@@H]5CC[C@@]4(C)[C@]3(C)CC[C@@]2(CCNC[C@H]2CCCNC2)CC1=O ; strain: 92HT599 ; method: p24 / ELISA ; cells: MT-2 ; result: <1 µM
CCCCC(=O)Oc1ccc(COP(=O)(OCc2ccc(OC(=O)CCCC)cc2)OP(=O)(O)OC[C@@H]2C=C[C@H](n3cc(C)c(=O)[nH]c3=O)O2)cc1 ; strain: IIIB ; method: syncytia / microscopy ; cells: CEM ; result: 2 µM
CC(C)C1=C2[C@H]3CC[C@@H]4[C@@]5(C)CC[C@H](OC(=O)[C@H]6C[C@@H](C(=O)O)C6(C)C)C(C)(C)[C@@H]5CC[C@@]4(C)[C@]3(C)CC[C@@]2([C@@H](O)CNC(=O)C2(NC(=O)c3ccc(Cl)cc3)CCCCC2)CC1=O ; strain: 92HT599 ; method: p24 / ELISA ; cells: MT-2 ; result: <1 µM
CC(C)OC(=O)[C@H](C)NP(=O)(CO[C@H](C)Cn1cnc2c(N)ncnc21)NC[C@H](C)C(=O)OC(C)C ; setting: 50% human serum ; method: fluorescence ; cells: MT4-GFP ; result: 59.3 µM
Nc1ccn([C@@H]2O[C@H](COP(=O)(O)O[C@@H]3[C@H](O)[C@@H](COP(=O)(O)O[C@@H]4[C@H](O)[C@@H](CO)O[C@H]4n4ccc(N)nc4=O)O[C@H]3n3ccc(N)nc3=O)[C@@H](O)[C@H]2O)c(=O)n1 ; method: cytopathic effect / neutral red ; cells: MT-2 ; result: 28 µM
CC(C)C1=C2[C@H]3CC[C@@H]4[C@@]5(C)CC[C@H](OC(=O)[C@H]6C[C@@H](C(=O)O)C6(C)C)C(C)(C)[C@@H]5CC[C@@]4(C)[C@]3(C)CC[C@@]2([C@@H](O)CNC(=O)C(C)(C)NC(=O)c2ccc(N3CCC(O)CC3)cc2)CC1=O ; strain: 92HT599 ; method: p24 / ELISA ; cells: MT-2 ; result: <1 µM
CC(C)OC(=O)[C@@H](C)CNP(=O)(CO[C@H](C)Cn1cnc2c(N)ncnc21)N[C@H](C)C(=O)OC(C)C ; setting: 50% human serum ; method: fluorescence ; cells: MT4-GFP ; result: 494.3 µM
CCC(=O)C1=C(CCC2CCCCC2)NC(=O)N[C@H]1c1ccc(O)c(Cl)c1 ; method: p24 / ELISA ; cells: CEM ; result: >5 µM
CC(C)OC(=O)[C@H](C)CNP(=O)(CO[C@H](C)Cn1cnc2c(N)ncnc21)N[C@H](C)C(=O)OC(C)C ; setting: 50% human serum ; method: fluorescence ; cells: MT4-GFP ; result: 908 µM
CS[C@@]12CC3=CC=C[C@H](O)[C@H]3N1C(=O)[C@@]13C[C@@H]4[C@@H]([C@@H](O)[C@@H](C[C@@H]4O)S1)N3C2=O ; strain: NL4-3 ; method: luciferase / luminescence ; cells: 293T ; result: 11.5 µM
CCCCOC(=O)[C@@H](C)NP(=O)(CO[C@H](C)Cn1cnc2c(N)ncnc21)NC[C@H](C)C(=O)OC(C)C ; setting: 50% human serum ; method: fluorescence ; cells: MT4-GFP ; result: 79.4 µM
Cc1cc(C)cc(C(=O)c2cc(Cl)ccc2OCC(=O)Nc2ccc(S(N)(=O)=O)cc2C)c1 ; strain: HXB2 ; method: β-galactosidase ; cells: HeLa + HELA CD4+ ; changes: RT-V108I ; result: <0.01 µM
CS[C@@]12CC3C(=O)CC[C@H](O)[C@H]3N1C(=O)[C@@]13C[C@H]4C(=O)C[C@@H](S1)[C@H](O)[C@H]4N3C2=O ; strain: NL4-3 ; method: luciferase / luminescence ; cells: 293T ; result: 16.6 µM
CCCCCOC(=O)C(C)(C)N[P@](=O)(CO[C@H](C)Cn1cnc2c(N)ncnc21)N[C@@H](CC(=O)OC(C)C)C(C)C ; setting: 10% human serum ; method: fluorescence ; cells: MT4-GFP ; result: 0.8 µM
Cc1cc(C#N)cc(C(=O)c2cc(Cl)ccc2OCC(=O)Nc2ccc(OCCCN3CC=CC3)cc2C)c1 ; strain: HXB2 ; method: β-galactosidase ; cells: HeLa + HELA CD4+ ; changes: RT-L100I ; result: <0.01 µM
CCC1=C(C(=O)OCC2CCCCC2)C(c2cc([N+](=O)[O-])ccc2F)NC(=O)N1 ; method: p24 / ELISA ; cells: CEM ; result: >5 µM
Cc1cn([C@H]2C[C@H](F)[C@@H](CO)O2)c(=O)n(C)c1=O ; strain: IIIB ; method: microscopy ; cells: CEM ; result: >400 µg/mL

For reference, 5 entries again:

| SMILES | strain | setting | method | cells | changes | result |
|---|---|---|---|---|---|---|
| Cc1cn([C@H]2C[C@H](F)[C@@H](CO)O2)c(=O)n(C)c1=O | IIIB |  | microscopy | CEM |  | >400 µg/mL |
| CC(C)C1=C2[C@H]3CC[C@@H]4[C@@]5(C)CC[C@H](OC(=O)[C@H]6C[C@@H](C(=O)O)C6(C)C)C(C)(C)[C@@H]5CC[C@@]4(C)[C@]3(C)CC[C@@]2([C@@H](O)CNCc2cccnc2N2CCOCC2)CC1=O | 92HT599 |  | p24 / ELISA | MT-2 |  | <1 µM |
| Cc1cn([C@H]2C=C[C@@H](CO)O2)c(=O)[nH]c1=O | IIIB |  | syncytia / microscopy | CEM |  | 0.86 µM |
| Nc1ccn([C@@H]2O[C@H](COP(=O)(O)O[C@@H]3[C@H](O)[C@@H](COP(=O)(O)O[C@@H]4[C@H](O)[C@@H](CO)O[C@H]4n4ccc(N)nc4=O)O[C@H]3n3ccc(N)nc3=O)[C@@H](O)[C@H]2O)c(=O)n1 |  |  | cytopathic effect / neutral red | MT-2 |  | 28 µM |
| O=C1Nc2cc(Cc3ncncc3F)ccc2[C@@](C#CC2CC2)(C(F)(F)F)N1 |  | pseudotyped | GFP | PBMC |  | 0.0214 µM |

An empty or dashed field is not shown. ECn is the concentration giving n% inhibition of infection, replication or growth. a–b is a range or a potency band.